Test system: influenza A and B viruses / MDCK cells

## zinc pyruvate
  in vitro selectivity ratio: very high
dog, mdck
  therapeutic index: 2000
